Anti-infective test results gathered from many reports (values: NIAID ChemDB through PubChem).

Shared fields: cytotoxicity tests; cells: MT-4; endpoint: CC50

CCn: concentration that lowers growth or viability of the cells by n%.

{"SMILES": "COc1ccc(-c2ccc(N=Nc3c(N)nc(=O)n(C)c3N(C)C)cc2)cc1OC", "method": "MTT", "value": "10.42 µM"}
{"SMILES": "CCN(CC)c1cc(-c2ccc(OCCCCC3=NCCO3)cc2O)on1", "value": "34 µM"}
{"SMILES": "Cc1ccc(S(=O)(=O)N2C(=O)CSC2c2ccc(Cl)cc2)cc1", "method": "MTT", "value": ">125 µM"}
{"SMILES": "CC1(C)c2nc(C(=O)NCc3ccc(F)cc3)c(O)c(=O)n2CCN1CC(=O)NCc1ccncc1", "method": "microscopy", "value": ">1 µM"}
{"SMILES": "C#CCNC(=O)CSc1cnc(Nc2ccc(C#N)cc2)nc1Oc1c(C)cc(C#N)cc1C", "method": "MTT", "value": "23.8 µM"}
{"SMILES": "N#Cc1c(N)c2cc(Br)ccc2n(-c2ccc([N+](=O)[O-])cc2)c1=O", "value": ">100 µM"}
{"SMILES": "Cc1ccc(S(=O)(=O)N2C(=O)CSC2c2ccccc2[N+](=O)[O-])cc1", "method": "MTT", "value": ">125 µM"}
{"SMILES": "CCN(CC)c1cc(-c2ccc(OCCCCCN)cc2O)on1", "value": "35 µM"}
{"SMILES": "Cc1ccnc2c1NC(=O)c1cccnc1N2C1CC1", "method": "MTT", "value": ">4 µM"}
{"SMILES": "CC(=O)N1Cn2c(nc(C(=O)NCc3ccc(F)cc3)c(O)c2=O)C1(C)C", "method": "microscopy", "value": ">1 µM"}
{"SMILES": "N#Cc1cc2ccc(O[C@H]3CCNC3)cc2n(-c2ccc([N+](=O)[O-])cc2)c1=O", "value": ">32 µM"}
{"SMILES": "CCN(CC)c1cc(-c2ccc(OCCCCC#N)cc2O)on1", "value": "5.6 µM"}
{"SMILES": "CCNc1c(C#N)c(=O)n(-c2ccc([N+](=O)[O-])cc2)c2ccccc12", "value": ">100 µM"}
{"SMILES": "Cc1ccnc2c1NC(=O)c1cccnc1N2C1CC1", "method": "MTT", "value": ">4 µM"}
{"SMILES": "N#Cc1cc2c3c(ccc2n(-c2ccc([N+](=O)[O-])cc2)c1=O)OCO3", "value": ">100 µM"}
{"SMILES": "Cc1ccc(S(=O)(=O)N2C(=O)CSC2c2cccc([N+](=O)[O-])c2)cc1", "method": "MTT", "value": ">125 µM"}
{"SMILES": "N#Cc1cc2ccc(OC[C@H]3CCCN3)cc2n(-c2ccc([N+](=O)[O-])cc2)c1=O", "value": ">32 µM"}
{"SMILES": "CCOP(=O)(OCC)C(Cc1ccccn1)N[C@@H](Cc1ccccc1)[C@H](O)CN(CC(C)C)S(=O)(=O)c1ccc(OC)cc1", "method": "MTT", "value": "13.93 µg/mL"}
{"SMILES": "COC(=O)CCS(=O)(=O)c1cnc(Nc2ccc(C#N)cc2)nc1Oc1c(C)cc(C#N)cc1C", "method": "MTT", "value": "13.6 µM"}
{"SMILES": "O=C(NCc1ccc(F)cc1)c1nc2n(c(=O)c1O)CCNC2COCc1ccccc1", "method": "microscopy", "value": ">1 µM"}
{"SMILES": "COCCNC(=O)CSc1cnc(Nc2ccc(C#N)cc2)nc1Oc1c(C)cc(C#N)cc1C", "method": "MTT", "value": "26.4 µM"}
{"SMILES": "[N-]=[N+]=N[C@H]1C[C@@H](CO)O[C@H]1n1cnc2c(N)ncnc21", "value": "625 µM"}
{"SMILES": "CCOP(=O)(CN[C@@H](Cc1ccccc1)[C@H](O)CN(CC(C)C)S(=O)(=O)c1ccc(OC)cc1)OCC", "method": "MTT", "value": "64.5 µg/mL"}
{"SMILES": "Cc1cc(C#N)cc(C)c1Oc1nc(Nc2ccc(C#N)cc2)ncc1SCC(=O)NCc1ccc(O)cc1", "method": "MTT", "value": "23.2 µM"}
{"SMILES": "Cn1c(N2CCOCC2)c(N=Nc2ccc(Cl)cc2)c(N)nc1=O", "method": "MTT", "value": "12.22 µM"}
{"SMILES": "Cc1ccc(S(=O)(=O)N2C(=O)CSC2c2ccc(O)cc2)cc1", "method": "MTT", "value": ">125 µM"}
{"SMILES": "COC(=O)CCC/C=C(/c1cc(C)c2on(C)c(=O)c2c1)c1cc(Cl)ccc1OC", "method": "MTT", "value": "28.8 µM"}
{"SMILES": "N#Cc1cc2ccc(N[C@H]3CCNC3)cc2n(-c2ccc([N+](=O)[O-])cc2)c1=O", "value": ">32 µM"}
{"SMILES": "CCN(CC)c1cc(-c2ccc(OCCCCCNC(C)=O)cc2O)on1", "value": "22 µM"}
{"SMILES": "CCCCCCNc1c(N=Nc2ccc(Cl)cc2)c(N)nc(=O)n1C", "method": "MTT", "value": "66.6 µM"}
{"SMILES": "Cc1cc(C#N)cc(C)c1Oc1nc(Nc2ccc(C#N)cc2)ncc1SCC(=O)NC1CC1", "method": "MTT", "value": "27.1 µM"}
{"SMILES": "CC(=O)NS(=O)(=O)c1ccc(-c2c3nc(c(-c4ccc(S(=O)(=O)NC(C)=O)cc4)c4ccc([nH]4)c(-c4ccc(S(=O)(=O)NC(C)=O)cc4)c4nc(c(-c5ccc(S(=O)(=O)NC(C)=O)cc5)c5ccc2[nH]5)C=C4)C=C3)cc1", "value": "50 µg/mL"}
{"SMILES": "COC(=O)CSc1cnc(Nc2ccc(C#N)cc2)nc1Oc1c(C)cc(C#N)cc1C", "method": "MTT", "value": "33.2 µM"}
{"SMILES": "CCCNc1c(N=Nc2ccc(-c3ccc(OC)c(OC)c3)cc2)c(N)nc(=O)n1C", "method": "MTT", "value": "36.76 µM"}
{"SMILES": "COC(=O)CCSc1cnc(Nc2ccc(C#N)cc2)nc1Oc1c(C)cc(C#N)cc1C", "method": "MTT", "value": "34.7 µM"}
{"SMILES": "C=CCNc1c(N=Nc2ccc(Cl)cc2)c(N)nc(=O)n1C", "method": "MTT", "value": "14.23 µM"}
{"SMILES": "Nc1ncnc2c1ncn2[C@H]1C=C[C@@H](OCP(=O)(O)O)O1", "value": ">600 µM"}
{"SMILES": "COc1ccc(-c2ccc(N=Nc3c(N)nc(=O)n(C)c3-c3ccc(OC)c(OC)c3)cc2)cc1OC", "method": "MTT", "value": "1.63 µM"}
{"SMILES": "Cc1cc(C#N)cc(C)c1Oc1nc(Nc2ccc(C#N)cc2)ncc1SCC(=O)NCCN1CCN(C(=O)OC(C)(C)C)CC1", "method": "MTT", "value": "20.2 µM"}
{"SMILES": "Cc1cc(CNC(=O)c2nc3n(c(=O)c2O)CCN(C)CC3N(C)C(=O)C(=O)N(C)C)ccc1F", "method": "microscopy", "value": ">1 µM"}
{"SMILES": "Nc1ncnc2c1ncn2[C@@H]1C[C@@H](O)[C@@H](O)[C@H]1O", "value": "1 µM"}
{"SMILES": "N#Cc1cc2ccc(OCCO)cc2n(-c2ccc([N+](=O)[O-])cc2)c1=O", "value": "23 µM"}
{"SMILES": "Cc1ccc(S(=O)(=O)N2C(=O)CSC2c2ccc([N+](=O)[O-])cc2)cc1", "method": "MTT", "value": ">125 µM"}

4 of the rows above, restated:

{"SMILES": "N#Cc1cc2c3c(ccc2n(-c2ccc([N+](=O)[O-])cc2)c1=O)OCO3", "value": ">100 µM"}
{"SMILES": "CC(=O)NS(=O)(=O)c1ccc(-c2c3nc(c(-c4ccc(S(=O)(=O)NC(C)=O)cc4)c4ccc([nH]4)c(-c4ccc(S(=O)(=O)NC(C)=O)cc4)c4nc(c(-c5ccc(S(=O)(=O)NC(C)=O)cc5)c5ccc2[nH]5)C=C4)C=C3)cc1", "value": "50 µg/mL"}
{"SMILES": "C#CCNC(=O)CSc1cnc(Nc2ccc(C#N)cc2)nc1Oc1c(C)cc(C#N)cc1C", "method": "MTT", "value": "23.8 µM"}
{"SMILES": "Cc1ccc(S(=O)(=O)N2C(=O)CSC2c2ccc(Cl)cc2)cc1", "method": "MTT", "value": ">125 µM"}

Lines come from different laboratories, so protocols vary.